Results of unrelated studies side by side (data: NIAID ChemDB).

All rows: whole-cell or culture tests; agent: Human cytomegalovirus; cells: HFF; measure: EC50

a–b is a range or a potency band. Neighbouring rows are from separate reports. ECn is the concentration giving n% inhibition of infection, replication or growth. Blank or dashed fields: not listed here.

compound,strain or isolate,method,value
O=C(O)P(=O)(O)O,4760RECPOLA1-1-1 (foscarnet-resistant),plaque count,75 µg/mL
Nc1ccn(C[C@H]2COP(=O)(O)CO2)c(=O)n1,AD169,plaque count,0.9 µM
O=c1[nH]c(=O)n([C@H]2C[C@H](O)[C@@H](CO)O2)cc1C(O)C(Cl)I,AD169,plaque count,>231 µM
OC[C@H]1O[C@@H](n2c(Br)nc3cc(Cl)c(Cl)cc32)[C@H](O)[C@@H]1O,TOWNE,virus yield,<0.2 µM
COc1cccc(N2CCN(c3cc4c(cc3N)c(=O)c(C(=O)O)cn4C3CC3)CC2)c1,AD169,plaque count,2.6 µM
CCCCCCCC/C=C\CCCCCCCOCCCOP(=O)(O)CO[C@H](CO)Cn1ccc(N)nc1=O,AD169,plaque count,0.002 µM
Nc1nc2c(ncn2COC(CO)CO)c(=O)[nH]1,AD169,plaque count,3.2 µM
OC[C@@H]1O[C@@H](n2c(Cl)nc3cc(Cl)c(Cl)cc32)[C@H](O)[C@@H]1O,TOWNE,virus yield,<5.8 µM
Nc1[nH]nc2c1c1cc(Cl)c(Cl)cc1n2[C@@H]1O[C@H](CO)[C@@H](O)[C@H]1O,-,plaque count,4 µM
CN(C)c1cccc2c(S(=O)(=O)Nc3ccc(NC(=O)C(C)(C)CO)cc3)cccc12,AD169,virus yield,<0.7 µM
[N-]=[N+]=Nc1nc2cc(Cl)c(Cl)cc2n1[C@H]1C[C@H](O)[C@@H](CO)O1,TOWNE,plaque count,>100 µM
Nc1nc2c(ncn2/C=C2/[C@H](CO)C2(F)F)c(=O)[nH]1,-,-,>100 µM
CCCCCCCCCCCCCCCCCCOC[C@H](COP(=O)(O)CO[C@H](CO)Cn1ccc(N)nc1=O)OCc1ccccc1,TOWNE,plaque count,0.003 µM
Nc1cn(C=C2C[C@H]2CO)c(=O)[nH]c1=O,AD169,cytopathic effect,>518 µM
CC(C)Oc1ccccc1CNC(=O)c1ccc2cnccc2n1,TOWNE,virus yield,1.8 µM
O[C@@H]1[C@H](O)CO[C@H]1n1c(Cl)nc2cc(Cl)c(Cl)cc21,TOWNE,virus yield,<0.12 µM
Nc1ccn(COC(CO)CO)c(=O)n1,AD169,plaque count,1.9–14 µM
COC(c1cn([C@H]2C[C@H](O)[C@@H](CO)O2)c(=O)[nH]c1=O)C(Br)Br,AD169,plaque count,>225 µM
CC(C)Nc1nc2cc(Cl)c(Cl)cc2n1[C@H]1O[C@@H](CO)[C@H](O)[C@@H]1O,2916R (1263W94-resistant),virus yield,<0.3 µM
Nc1nc2c(ncn2[C@@H]2C[C@H](CO)[C@H]2CO)c(=O)[nH]1,Isolate Helebrand (resistant),plaque count,3.36 µM
Cc1cc(C2CCCCC2)n(O)c(=O)c1,AD169,plaque count,0.33 µM
Nc1nc(NC2CC2)c2ncn(C=C3CC3CO)c2n1,AD169,-,2.4 µM
COC(=O)C(Cc1c[nH]c2ccccc12)NP(=O)(O)OCC1C/C1=C/n1cnc2c(N)ncnc21,TOWNE,plaque count,1.5 µM
C[C@@H]1O[C@@H](n2c(Cl)nc3cc(Cl)c(Cl)cc32)[C@H](O)[C@@H]1O,C4 (BDCRB- maribavir-resistant),plaque count,0.95 µM
COc1cc(OC)c(NC(=S)Nc2ccc(NC(=O)c3ccco3)cc2)cc1Cl,AD169,-,0.016 µM
COC(=O)[C@H](C)NP(=O)(OC[C@H]1C/C1=C/n1cnc2c(N)nc(N)nc21)Oc1ccccc1,AD169,plaque count,7.8 µM
COc1ccccc1N1CCN(c2cc3c(cc2N)c(=O)c(C(=O)O)cn3C2CC2)CC1,AD169,plaque count,>25 µM
Cc1cc2nc(Cl)n([C@H]3C[C@H](O)[C@@H](CO)O3)c2cc1C,TOWNE,plaque count,>100 µM
COC(=O)C(C)NP(=O)(OC[C@@H]1C/C1=C/n1cc(C)c(=O)[nH]c1=O)Oc1ccccc1,TOWNE,plaque count,>100 µM
COC(=O)[C@H](C)NP(=O)(OCC1C/C1=C/n1cnc2c(N)ncnc21)Oc1ccccc1,AD169,cytopathic effect,1.3 µM
Nc1ccn(C[C@@H](CO)OCP(=O)(O)O)c(=O)n1,D-10 C4 (BDCRB-resistant),plaque count,0.11 µg/mL
COC(c1cn([C@H]2C[C@H](O)[C@@H](CO)O2)c(=O)[nH]c1=O)C(Br)I,AD169,plaque count,>204 µM
Nc1ccn(C[C@@H](CO)OCP(=O)(O)O)c(=O)n1,Isolate Helebrand (wild type),plaque count,0.81 µM
CC[C@@]1(Br)C(=O)NC(=O)N([C@H]2C[C@H](O)[C@@H](CO)O2)[C@H]1OC,AD169,cytopathic effect,0.28 µM
Nc1nc2c(ncn2C=C2CC2CO)c(=O)[nH]1,C8706/13-1-1,plaque count,12 µM
Nc1nc2ncn(/C=C3/C(F)C3(CO)CO)c2c(=O)[nH]1,TOWNE,cytopathic effect,>100 µM
O=c1[nH]c(=O)n([C@H]2C[C@H](O)[C@@H](CO)O2)cc1C(O)C(Br)Br,AD169,plaque count,>232 µM
O=C(NCCc1ccccc1)C1=Cc2ccncc2CC1,D-10 C4,plaque count,11.2 µM
Cn1cc(C(=O)NCc2ccc(Cl)cc2)c(=O)c2cc(CN3CCOCC3)ccc21,A,plaque count,1.1 µM
COC(=O)[C@H](C)NP(=O)(OC[C@@H]1C[C@]12C[C@@H]2n1cnc2c(N)ncnc21)Oc1ccccc1,-,-,0.38 µM
Cc1cc(C)c(OC(=O)c2ccc(Cl)cc2)c(=O)c(C)c1,AD169,plaque count,1.94 µM
COC(c1cn([C@H]2C[C@H](O)[C@@H](CO)O2)c(=O)[nH]c1=O)C(I)I,AD169,plaque count,>186 µM
COC(=O)C(C)NP(=O)(OC[C@@H]1C/C1=C/n1cc(N)c(=O)[nH]c1=O)Oc1ccccc1,TOWNE,plaque count,1.5 µM
OCC(O)COCc1c(Cl)nc2cc(Cl)c(Cl)cn12,TOWNE,plaque count,>100 µM
Nc1nc(N)c2ncn(C=C3CC3CO)c2n1,AD169,-,16 µM
OCCSCc1c(Cl)nc2cc(Cl)c(Cl)cn12,TOWNE,plaque count,>100 µM
Nc1nc(=O)n([C@@H]2O[C@H](CO)[C@@H](O)[C@@H]2F)cc1I,AD169,plaque count,0.6 µM
CCSCc1c(Cl)nc2cc(Cl)c(Cl)cn12,TOWNE,plaque count,>100 µM
Cc1cn([C@@H]2O[C@H](CO)[C@H]2CO)c(=O)[nH]c1=O,AD169,plaque count,>100 µg/mL
Nc1nc(NC2CCCCC2)c2ncn(/C=C3/C[C@@H]3CO)c2n1,AD169,plaque count,>318 µM
CC(=O)NC(CCc1ccc(Cl)c(Cl)c1)c1cccc(O)c(=O)c1,AD169,plaque count,0.47 µM
Nc1ccn(C[C@@H](CO)OCP(=O)(O)O)c(=O)n1,AD169,plaque count,0.3 µM
Nc1ncnc2c1ncn2[C@@H]1C[C@H](NC=O)[C@@H](O)[C@H]1O,-,-,>100 µg/mL
Nc1nc2c(ncn2/C=C2/CC2(CO)CO)c(=O)[nH]1,VR4760 (ganciclovir- foscarnet-resistant),plaque count,1.6 µM
CCCCCCCCCCCCCCCCOP(=O)(O)CO[C@H](CO)Cn1ccc(N)nc1=O,AD169,plaque count,0.005 µM
CSc1nc2cc(Cl)c(Cl)cc2n1[C@H]1C[C@H](O)[C@@H](CO)O1,TOWNE,plaque count,>100 µM
Nc1cc2c(=O)c(C(=O)O)cn(C3CC3)c2nc1N1CCN(c2ccccn2)CC1,AD169,plaque count,0.9 µM
Nc1ccn(C[C@@H](CO)OCP(=O)(O)O)c(=O)n1,C8914-6,plaque count,6 µM
COc1nc2cc(Cl)c(Cl)cc2n1[C@H]1C[C@H](O)[C@@H](CO)O1,TOWNE,plaque count,>100 µM
O[C@@H]1[C@H](O)[C@H](O)CO[C@H]1n1c(Br)nc2cc(Cl)c(Cl)cc21,CH,plaque count,3 µM
COc1nc(N)nc2c1ncn2/C=C1/C[C@@H]1CO,AD169,plaque count,2 µM
O=C(O)c1cn(C2CC2)c2nc(N3CCN(c4nc5ccccc5s4)CC3)ccc2c1=O,AD169,plaque count,0.19 µM
Nc1nc(NC2CC2)c2ncn(C=C3CC3CO)c2n1,C8805/37-1-1,plaque count,10.3 µM
C=CCOCc1c(Cl)nc2ccc(Cl)cn12,TOWNE,plaque count,18 µM
Nc1nc2c(ncn2COC(CO)CO)c(=O)[nH]1,TW-087,plaque count,1.5 µM
C=CCNc1nc(N)nc2c1ncn2/C=C1/C[C@@H]1CO,AD169,plaque count,2.8 µM
Nc1ncnc2c1ncn2/C=C1/[C@H](CO)C1(F)F,-,-,>100 µM
CC[C@]1(Cl)C(=O)NC(=O)N([C@H]2C[C@H](O)[C@@H](CO)O2)[C@@H]1OC,AD169,cytopathic effect,>50 µM
Cn1cc(C(=O)NCc2ccc(Cl)cc2)c(=O)c2cc(CN3CCOCC3)ccc21,AD169,plaque count,0.8 µM
Cc1cn([C@@]23C[C@H](O)[C@@H](CO)[C@@H]2C3)c(=O)[nH]c1=O,-,plaque count,>20 µg/mL
CC(C)Nc1nc2cc(Cl)c(Cl)cc2n1[C@@H]1OC[C@@H](O)[C@H]1O,TOWNE,virus yield,<5 µM
OC[C@H]1O[C@@H](n2c(Br)nc3cc(Cl)c(Cl)cc32)[C@H](O)[C@@H]1O,VR4760R (drug-resistant),plaque count,1.7 µM
COc1ccccc1CNC(=O)C1=Cc2ccncc2CC1,1117R73-1-2,plaque count,5.6 µM
Nc1nc2c(ncn2COC(CO)CO)c(=O)[nH]1,TOWNE,virus yield,<2.4 µM
Nc1nc2c(ncn2COC(CO)CO)c(=O)[nH]1,Coffman,plaque count,11.5 µM
OC[C@H]1O[C@@H](n2c(Br)nc3cc(Cl)c(Cl)cc32)[C@H](O)[C@@H]1O,Isolate Helebrand (resistant),plaque count,2.03 µM
C[C@H]1O[C@@H](n2c(Cl)nc3cc(Cl)c(Cl)cc32)[C@H](O)C1O,Isolate D10 (D344E mutation),plaque count,3.1 µM
OC[C@H]1O[C@@H](n2c(Br)nc3cc(Cl)c(Cl)cc32)[C@H](O)[C@@H]1O,2916 (bdcrb maribavir-resistant),virus yield,0.38 µM
Nc1ncnc2c1ncn2C12CCC(O)C1(CO)C2,-,plaque count,2.4 µg/mL
Nc1nc(OCC2CC2)c2ncn(/C=C3/C[C@@H]3CO)c2n1,AD169,plaque count,1.7 µM
COC(=O)[C@H](C)NP(=O)(OC[C@H]1C/C1=C/n1cnc2c(N)nc(N)nc21)Oc1ccccc1,AD169,-,7.8 µM